Anti-infective test results gathered from many reports (values: NIAID ChemDB through PubChem).

Common to all: tests in culture; species: HIV-1; cells: MT-4; endpoint: EC50

ECn: concentration that inhibits the pathogen or its effect by n%. Rows are shuffled and stem from different studies. Blank or dashed fields: not listed here.

SMILES | strain or isolate | changes | read by | value
O=c1[nH]cnc2c1ncn2O[C@@H]1CO[C@@H](CO)O1 | - | - | - | >100 µg/mL
COc1ccc2[nH]c(=S)n(Cc3c(F)cccc3F)c2c1 | IIIB | - | cytopathic effect / MTT | >1.71 µg/mL
C#C[C@@]12OC[C@]1(CO)O[C@@H](n1ccc(N)nc1=O)[C@@H]2O | IIIB | - | antigen | >100 µM
Nc1nc2c(ncn2[C@H]2C=C[C@@H](OCP(=O)(O)O)C2)c(=O)[nH]1 | - | - | p24 | 138 µM
C#C[C@@]1(O)[C@@H]([C@@H](C)O)O[C@@H](n2ccc(N)nc2=O)[C@@H]1O | IIIB | - | antigen | >100 µM
Fc1cccc(F)c1CCn1c(=S)[nH]c2ccc(Cl)nc21 | IIIB | - | cytopathic effect / MTT | 2.09 µg/mL
COc1ccc(Nc2nn3c(=O)c4ccccc4nc3s2)cc1 | IIIB | - | cytopathic effect / MTT | >99.15 µg/mL
COc1ccc(C2ON=C3c4cc(OC)c(OC)cc4CC32)cc1OC | IIIB | - | MTT | >11.73 µM
Cc1ccnc2c1[nH]c(=S)n2Cc1c(F)cccc1F | IIIB | - | cytopathic effect / MTT | >0.083 µg/mL
CCc1c(Cc2cc(C)cc(C)c2)n(COCC#Cc2cccs2)c(=O)[nH]c1=O | IIIB | Y181C | MTT | 2.5 µM
C#C[C@@]1(OC(C)=O)[C@@H]([C@@H](C)OC(C)=O)O[C@@H](n2ccc(=O)[nH]c2=O)[C@@H]1OC(C)=O | IIIB | - | antigen | >100 µM
O=c1[nH]c(=O)n([C@H]2C[C@H](O)[C@@H](CO)S2)cc1/C=C/Br | IIIB | - | cytopathic effect / MTT | >500 µM
Cc1cn([C@H]2C[C@H](N=[N+]=[N-])[C@@H](COP(=O)(O)C(=O)NCCO)O2)c(=O)[nH]c1=O | GKV-4046 | - | p24 | 2.4 µM
CC(=O)Nc1ccc(SSc2ccc(NC(C)=O)cc2C(N)=O)c(C(N)=O)c1 | AZT-resistant | - | XTT | 1.6 µM
C[C@]12CCC3C(CC=C4C[C@@H](O)CC[C@@]43C)C1CCC2C(=O)/C=C/c1cc(Br)ccc1O | IIIB | - | MTT | >12.05 µM
COc1ccc(-c2sc(C)c(C(OC(C)(C)C)C(=O)O)c2-c2ccc3c(c2)CCCO3)cc1 | NL4-3 | - | ATP | 0.62 µM
CCc1c(Cc2cc(C)cc(C)c2)n(COCC#Cc2cc(C(F)(F)F)cc(C(F)(F)F)c2)c(=O)[nH]c1=O | IIIB | WT | MTT | 0.8 µM
COc1cc2c(cc1OC)C1=NOC(c3ccc(Cl)cc3)C1C2 | IIIB | - | MTT | >12.1 µM
Cc1cn([C@H]2C[C@H](N=[N+]=[N-])[C@@H](COP(=O)(O)CCl)O2)c(=O)[nH]c1=O | GKV-4046 | - | p24 | 1.3 µM
Cc1cn([C@H]2C=C[C@@H](CO)O2)c(=O)[nH]c1=O | HXB2 | RT-T215Y | cytopathic effect / MTT | 0.59 µM
C[C@]12CCC3C(CC=C4C[C@@H](O)CC[C@@]43C)C1CCC2C(=O)/C=C/c1ccc(Br)cc1 | IIIB | - | MTT | >13.3 µM
C#C[C@@]1(O)[C@@H](CO)O[C@@H](n2ccc(=O)[nH]c2=O)[C@@H]1O | IIIB | - | antigen | >100 µM
Nc1nc2c(ncn2O[C@H]2CO[C@@H](CO)O2)c(=O)[nH]1 | - | - | - | >100 µg/mL
C#C[C@@]1(OC(C)=O)[C@@H]([C@@H](COC(C)=O)OC(C)=O)O[C@@H](n2ccc(=O)[nH]c2=O)[C@@H]1OC(C)=O | IIIB | - | antigen | >100 µM
Cn1c([S-])nc2nc(-c3ccccc3)c(-c3ccccc3)nc2c1=O.Cn1c([S-])nc2nc(-c3ccccc3)c(-c3ccccc3)nc2c1=O.[O]=[V+2] | IIIB | - | cytopathic effect | >61.43 µg/mL
Cc1cn([C@H]2C[C@H](N=[N+]=[N-])[C@@H](COP(=O)(O)CCN)O2)c(=O)[nH]c1=O | GKV-4046 | - | p24 | 3.2 µM
CCOP(=O)(/C=C/[C@]1(C(F)(F)F)CC[C@H](n2cnc3c(Cl)nc(N)nc32)C1)OCC | - | - | MTT | 49.5 µM
CCc1c(Cc2cc(C)cc(C)c2)n(COCC#Cc2ccc(CO[Si](c3ccccc3)(c3ccccc3)C(C)(C)C)cc2)c(=O)[nH]c1=O | IIIB | Y181C | MTT | 20 µM
Nc1ncnc2c1ncn2[C@H]1CC[C@](/C=C/P(=O)(O)O)(C(F)(F)F)C1 | - | - | MTT | 42.5 µM
CCc1c(Cc2cc(C)cc(C)c2)n(COCc2cn(Cc3c(F)cccc3F)nn2)c(=O)[nH]c1=O | IIIB | K103N + Y181C | MTT | 14 µM
Cc1cn([C@H]2C[C@H](N=[N+]=[N-])[C@@H](CO)S2)c(=O)[nH]c1=O | IIIB | - | cytopathic effect / MTT | >100 µM
C[C@]12CCC3C(CC=C4C[C@@H](O)CC[C@@]43C)C1CCC2C(=O)/C=C/c1ccc2c(c1)Cc1ccccc1-2 | IIIB | - | MTT | >7.62 µM
CCOP(=O)(CC[C@]1(C(F)(F)F)CC[C@H](n2cnc3c(Cl)nc(N)nc32)C1)OCC | - | - | MTT | 56.2 µM
COc1cc2c(cc1OC)C1=NOC(c3ccc(F)cc3)C1C2 | IIIB | - | MTT | 9.05 µM
COc1cccc2c1[nH]c(=S)n2Cc1c(F)cccc1F | IIIB | - | cytopathic effect / MTT | >0.44 µg/mL
Nc1nc2c(ncn2[C@H]2C=C[C@@H](CO)[C@@H]2CO)c(=O)[nH]1 | IIIB | - | XTT | >100 µg/mL
OC[C@H]1O[C@@H](On2cnc3c(Cl)ncnc32)CS1 | - | - | - | >100 µg/mL
Fc1cccc(F)c1Cn1c(=S)[nH]c2ccc(Cl)nc21 | IIIB | - | cytopathic effect / MTT | 0.73 µg/mL

Repeating the first 4 entries:

{"SMILES": "O=c1[nH]cnc2c1ncn2O[C@@H]1CO[C@@H](CO)O1", "value": ">100 µg/mL"}
{"SMILES": "COc1ccc2[nH]c(=S)n(Cc3c(F)cccc3F)c2c1", "strain or isolate": "IIIB", "read by": "cytopathic effect / MTT", "value": ">1.71 µg/mL"}
{"SMILES": "C#C[C@@]12OC[C@]1(CO)O[C@@H](n1ccc(N)nc1=O)[C@@H]2O", "strain or isolate": "IIIB", "read by": "antigen", "value": ">100 µM"}
{"SMILES": "Nc1nc2c(ncn2[C@H]2C=C[C@@H](OCP(=O)(O)O)C2)c(=O)[nH]1", "read by": "p24", "value": "138 µM"}